From US6077680A (dated 2000)
Read-outs that look alike come from different tables or passages of the source.

What was measured:
[1] = molecular target: rat brain membrane K channels (delayed rectifier, primarily Kv1.2) (rat) (UniProt P63142)
[2] = molecular target: rat brain membrane K channels (delayed rectifier, primarily Kv1.2) (rat) (UniProt P63142); assay: 125I-DTX displacement, rat brain membranes
[3] = molecular target: rat brain membrane K channels (delayed rectifier, primarily Kv1.2) (rat) (UniProt P63142); remark: listed apart in the source
[4] = molecular target: rat brain membrane K channels (delayed rectifier, primarily Kv1.2) (rat) (UniProt P63142); remark: listed apart in the source
[5] = molecular target: Kv1.3 potassium channel of human T lymphocytes (human) (UniProt P22001)
[6] = molecular target: rat brain membrane K channels (delayed rectifier, primarily Kv1.2) (rat) (UniProt P63142); remark: listed apart in the source
[7] = molecular target: cloned Kv1.3 channel, wild type; assay: double-mutant cycle analysis, electrophysiology

Row | Substance | IC50 ratio (analog IC50/ShK IC50) [2] | free energy difference of binding [2] [kJ/mol] | further results
1 | ShK F15 p-azido-Phe (peptide) | – | – | IC50 ratio (analog IC50/ShK IC50) [1]: 1.4; free energy difference of binding [1]: 0.837 kJ/mol
2 | ShK F27A (peptide) | 15.3 | 6.65 | –
3 | ShK H19K (peptide) | 2.6 | 2.34 | IC50 ratio (analog IC50/ShK IC50) [1]: 2.6; free energy difference of binding [1]: 2.34 kJ/mol
4 | ShK K22E (peptide) | 726 | 16.2 | IC50 ratio (analog IC50/ShK IC50) [3]: 726; free energy difference of binding [3]: 16.2 kJ/mol
5 | ShK K30A (peptide) | 5.3 | 4.1 | –
6 | ShK L25A (peptide) | 1.4 | 0.837 | –
7 | ShK Q16A (peptide) | 1 | 0 | –
8 | ShK Q16E (peptide) | 2.8 | 2.51 | –
9 | ShK R11A (peptide) | 2 | 1.72 | IC50 ratio (analog IC50/ShK IC50) [4]: 2; free energy difference of binding [4]: 1.72 kJ/mol
10 | ShK R11E (peptide) | 30.8 | 8.41 | IC50 ratio (analog IC50/ShK IC50) [4]: 30.8; free energy difference of binding [4]: 8.41 kJ/mol
11 | ShK R11Q (peptide) | – | – | equipotent molar ratio (analog IC50/ShK IC50) for block of Kv1.3 current [5]: 42
12 | ShK R24A (peptide) | – | – | equipotent molar ratio (analog IC50/ShK IC50) for block of Kv1.3 current [5]: 2.4
13 | ShK S20A (peptide) | 5.9 | 4.35 | –
14 | ShK T13A (peptide) | 1.7 | 1.3 | –
15 | ShK T34A (peptide) | 1 | 0 | –
16 | ShK Y23A (peptide) | 108 | 11.5 | IC50 ratio (analog IC50/ShK IC50) [6]: 108; free energy difference of binding [6]: 11.5 kJ/mol; increase in the relative free energy of binding [2]: > 11.7 kJ/mol
17 | ShK toxin (synthetic, wild type) (peptide) | – | – | coupling energy (ΔΔG) of the mutant cycle Kv1.3(D386→K)-ShK(K22→Nle) [7]: 0.222 kJ/mol; coupling energy (ΔΔG) of the mutant cycle Kv1.3(D386→K)-ShK(R11→A) [7]: 5.86 kJ/mol
